{"source": "PubChem BioAssay AID504761, Drosophila RNAi Screening Center – 2011", "screen": "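Genome-wide fly cell screen for genes dengue virus requires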 (primary screen)", "cells": "D.Mel-2 cells from Drosophila", "reagent": "long dsRNA against Drosophila genes", "treatment": "infection with dengue virus type 2; dose and infection time not stated", "detection": "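Per well on two replicate plates, imaging gave the percent of cells positive for viral envelope protein, ranked by infection, and a nuclear count of cells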", "direction": "infection score: higher = more virus-infected cells; cell count: higher = more cells in the well", "hit rule": "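Very low infection ranking in both replicate wells (chance probability at most 0.065), then a retest showing infection dropped 1.5-fold or more at p below 0.05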", "meaning of the calls": "active = confirmed: knock-down lowers infection; inactive = not picked or not confirmed", "note": "The deposit covers about 22,000 reagents; this is a random part of those that have a named target and a result. Of all reagents, 116 (0.52%) are marked active. 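Calls depend on retest data that are not deposited; infection was ranked per plate without normalising between plates; the unit of the infection score is not given.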 The raw values are shown without normalisation. A number with no mark means an inactive call. A plus sign joins genes that one reagent is predicted to hit. Not all columns of the deposit are shown. The record does not give: the amount of reagent, the time to read-out."}
{"target gene": "sro (shroud)", "amplicon": "DRSC14469", "infection score, replicate 1": 3.56, "cell count, replicate 1": 4044}
{"target gene": "sro (shroud)", "amplicon": "DRSC27358", "infection score, replicate 1": 8.17, "cell count, replicate 1": 6742}
{"target gene": "Cdk2 (Cyclin-dependent kinase 2)", "amplicon": "DRSC16921", "infection score, replicate 1": 8.73, "cell count, replicate 1": 3644}
{"target gene": "CG32376", "amplicon": "DRSC22754", "infection score, replicate 1": 4.2, "cell count, replicate 1": 5880}
{"target gene": "CG31627", "amplicon": "DRSC22143", "infection score, replicate 1": 2.6, "cell count, replicate 1": 6808}
{"target gene": "MnM (myomesin and myosin binding protein)", "amplicon": "DRSC08423", "infection score, replicate 1": 1.51, "cell count, replicate 1": 6566}

Next part; the last 2 above are carried over.
{"target gene": "CG31627", "amplicon": "DRSC22143", "infection score, replicate 1": 2.6, "cell count, replicate 1": 6808}
{"target gene": "MnM (myomesin and myosin binding protein)", "amplicon": "DRSC08423", "infection score, replicate 1": 1.51, "cell count, replicate 1": 6566}
{"target gene": "otk2 (off-track2)", "amplicon": "DRSC07303", "infection score, replicate 1": 6.7, "cell count, replicate 1": 6571}
{"target gene": "Rad1 + Sws1", "amplicon": "DRSC00778", "infection score, replicate 1": 2.46, "cell count, replicate 1": 6669}
{"target gene": "GNBP-like3 (GNBP-like 3)", "amplicon": "DRSC06385", "infection score, replicate 1": 3.46, "cell count, replicate 1": 6158}
{"target gene": "Ir52c (Ionotropic receptor 52c)", "amplicon": "DRSC21801", "infection score, replicate 1": 29.1, "cell count, replicate 1": 6285}
{"target gene": "Ir52c (Ionotropic receptor 52c)", "amplicon": "DRSC27570", "infection score, replicate 1": 23.3, "cell count, replicate 1": 5824}
{"target gene": "PIG-X (Phosphatidylinositol glycan anchor biosynthesis class X)", "amplicon": "DRSC22721", "infection score, replicate 1": 1.7, "cell count, replicate 1": 6893}
{"target gene": "Hayan", "amplicon": "DRSC19989", "infection score, replicate 1": 1.56, "cell count, replicate 1": 7066}
{"target gene": "Hayan", "amplicon": "DRSC22231", "infection score, replicate 1": 4.01, "cell count, replicate 1": 7128}
{"target gene": "Hayan", "amplicon": "DRSC26434", "infection score, replicate 1": 0.9, "cell count, replicate 1": 6095}
